Assays:
[1] = In vitro drug release in human plasma with or without esterase inhibitor PMSF; settings: 37 °C
[2] = rat axillary lymph nodes, 4 h post dose
[3] = esterase-inhibited human plasma (5 mM PMSF)
[4] = 24 h incubation at 10 ug/mL FTC, normalized to soluble protein

Q: Which “first-order drug release half-life” value [1, 3] does the source give for “poly(L-lysine succinylated) FTC prodrug [PLS-FTC]” here?
A: 29 h

Q: What about the “FTC released after 24 h incubation” value [1, 3] of the same substance?
A: 43%

Q: And the “FTC released after 24 h incubation” value ([1]; fresh human plasma)?
A: ~ 65%

Q: What about the “first-order drug release half-life” value ([1]; human plasma) of the same substance?
A: 15 h

Q: And the “FTC signal abundance (IR-MALDESI MSI)” value [2]?
A: 158.0 ± 96.0 arbitrary units

Q: And the frequency of detection [2]?
A: 11.1 ± 2.2 % of sampling locations with measurable drug

Q: And the “FTC concentration in PBMCs” value (human PBMCs; [4])?
A: 40.6 ± 1.7 ng/mg protein

Q: And the “FTC-TP concentration in PBMCs” value (human PBMCs; [4])?
A: 52.7 ± 14.3 ng/mg protein

Q: And the “ratio of active metabolite to precursor, FTC-TP/FTC” value (human PBMCs; human PBMCs, 24 h incubation)?
A: 1.3
